Results of unrelated studies side by side (data: NIAID ChemDB).

Shared fields: whole-cell or culture tests; species: Candida albicans

Conditions beyond the fields shown may differ between rows.

SMILES	strain	read by	endpoint	conditions	value
O=C(O/N=C(\CCn1ccnc1)c1ccc(Cl)cc1)c1ccc(Cl)cc1		agar diffusion	MIC80		0.0805 µg/mL
COc1ccc(C2CC(c3cccs3)=NN2c2nc(-c3ccc(Cl)cc3)cs2)cc1	Clinical isolates		MIC		125 µg/mL
OC(Cn1cncn1)(c1ccc(C(F)(F)F)cc1)C(F)(F)c1nc2ccccc2s1	ATCC 90028		MIC		≤0.016 µg/mL
O=C(O/N=C(\CCn1ccnc1)c1ccccc1)c1ccccc1Cl		agar diffusion	MIC80		0.7069 µg/mL
Cc1c(-c2nc3cc(C(C)(C)C)cc(C(C)(C)C)c3o2)[nH]c2ccccc12	ATCC 44859		MIC		>500 µM
COc1cc(NC(C)CCCN)c2nc(C(C)(C)C)ccc2c1Oc1cccc(C(F)(F)F)c1			MIC		>20 µg/mL
C[C@H](n1ccnn1)[C@](O)(Cn1cncn1)c1ccc(F)cc1	TA		MIC		50 µg/mL
Cc1cc(=O)oc2cc(OCC(O)Cn3cncn3)cc(OCC(O)Cn3cncn3)c12			MIC		1 µg/mL
Cc1ccc(/C(CCn2ccnc2)=N/OC(=O)c2ccc(Cl)cc2)cc1		agar diffusion	MIC80		0.1699 µg/mL
CC[C@@H]([C@H](C)O)n1ncn(-c2ccc(N3CCN(c4ccc(OC[C@@H]5CO[C@@](Cn6cncn6)(c6ccc(F)cc6F)C5)cc4)CC3)cc2)c1=O	15 isolates	broth dilution	MIC	pH 6	0.03 µg/mL
NC=Nc1cccc(SCc2cc(Br)cc(Br)c2)c1	SC5314		MFC		5 µM
COc1ccc(/C(CCn2ccnc2)=N\O)cc1		agar diffusion	MIC80		0.5099 µg/mL
CCN(CC)Cn1c(C=Cc2ccccc2)nc2ccccc21			MIC		39.1 µM
CCS(=O)(=O)c1nnc(-c2ccccc2[N+](=O)[O-])s1	ATCC 10231		MIC		50 µg/mL
Oc1ccc(C(=S)N2C=NC(c3ccccc3)C2c2ccccc2)c(O)c1	10 isolates		MIC		25 µg/mL
CCC(C)CC(C)CCCCCCCCC(=O)N[C@H]1C[C@@H](O)[C@H](NCCN)NC(=O)[C@@H]2[C@@H](O)CCN2C(=O)[C@H]([C@H](O)CCN)NC(=O)[C@H]([C@H](O)[C@@H](O)c2ccc(O)cc2)NC(=O)[C@@H]2C[C@@H](O)CN2C(=O)[C@H]([C@@H](C)O)NC1=O	10 isolates	broth dilution	EC90	pH 4	2 µg/mL
CCOC(=O)Cc1nnnn1C(=S)c1ccc(O)cc1O	ATCC 10231		MIC		50 µg/mL
OC(Cn1cncn1)(c1ccc(F)cc1F)C(F)(F)c1nc(Br)cs1	ATCC 90028		MIC		≤0.125 µg/mL
O=C(/C=C/c1ccccc1)OCc1ccccc1			MIC		0.002 µg/mL
CC(C)C1Nc2cc(C(C)(C)C)cc(C(C)(C)C)c2O1	ATCC 44859		MIC		>500 µM
Clc1ccc(C(c2ccccc2)n2nnc3ccccc32)cc1		agar	MIC90		>256 µg/mL
COc1ccc2c(c1)[nH]c1cc(OC)c(C(=O)O)cc12			MIC50		>50 µg/mL
Clc1ccc(-c2csc(N3N=C(c4cccs4)CC3c3ccccc3)n2)cc1	Clinical isolates		MIC		125 µg/mL
COc1ccc2c(c1)[nH]c1cc(O)c(C=O)cc12			MIC50		2.8 µg/mL
CCOc1ccc(C=Cc2nc3ccccc3n2CN(CC)CC)cc1			MIC		34.3 µM
O=S(=O)(c1ccccc1)n1cc(C(F)(F)C(O)(Cn2cncn2)c2ccc(F)cc2F)c2ccccc21	ATCC 90028		MIC		>64 µg/mL
C[C@H]1[C@H](O)[C@@H](C)/C=C/C=C/C=C/C=C/C=C/C=C/C=C/[C@H](O[C@@H]2O[C@H](C)[C@@H](O)[C@H](N)[C@@H]2O)C[C@@H]2O[C@](O)(C[C@@H](O)C[C@@H](O)CC[C@H](O)[C@@H](O)C[C@@H](O)CC(=O)O[C@H]1C)C[C@H](O)[C@H]2C(=O)O	ATCC 10231	broth dilution / absorbance	MIC		9.77 µg/mL
Cc1cc(=O)oc2cc(OCC(O)Cn3nnc4ccccc43)cc(OCC(O)Cn3nnc4ccccc43)c12			MIC		8 µg/mL
CS(=O)c1nnc(Cc2cc([N+](=O)[O-])ccc2-c2ncc[nH]2)s1	ATCC 10231		MIC		12.5 µg/mL
O=C(O/N=C(\CCn1ccnc1)c1ccccc1)c1ccc(C(F)(F)F)cc1		agar diffusion	MIC80		0.6454 µg/mL
O=C(/C=C/c1ccccc1)Oc1cccc2cccc(O)c12			MIC		0.003 µg/mL
CS(=O)(=O)c1nnc(Cc2cc([N+](=O)[O-])ccc2-c2ncc[nH]2)s1	ATCC 10231		MIC		0.78 µg/mL
CC(N1CCN(c2ccc(-n3cnnn3)cc2)C1=O)[C@](O)(Cn1cncn1)c1ccc(F)cc1F	Azole-susceptible		MIC		0.008 µg/mL
O=C(/C=C/c1ccc(O)cc1O)c1ccccc1	SDAU6		MIC		75 µg/mL
CN(C)CCN1C(=O)C=CC1=O	ATCC 10231	broth dilution	MIC80		128 µg/mL
Oc1ccc(C(=S)N2C=NC(Cl)C2Cl)c(O)c1	ATCC 10231		MIC		50 µg/mL
C[C@@H](n1ccnn1)[C@@](O)(Cn1cncn1)c1ccccc1F	IFO 0583		MIC		50 µg/mL
COc1ccc(-c2csc(N3N=C(c4cccs4)CC3c3ccc([N+](=O)[O-])cc3)n2)cc1	Clinical isolates		MIC		125 µg/mL
C[C@@H](c1nc(-c2ccc(C#N)cc2)cs1)[C@](O)(Cn1cncn1)c1ccc(F)cc1F	E81113		MIC		0.78 µg/mL
O=C1C=CC(=O)N1c1ccccc1	ATCC 10231	broth dilution	MIC80		2 µg/mL
Nc1ncccc1-c1cc(Cc2ccc(COc3ccccn3)cc2)no1	IFM49971	broth dilution	MIC50		0.008 µg/mL
c1ccc(C(c2ccccc2)n2cnc3ccccc32)cc1		agar	MIC90		>256 µg/mL
CCN(CC)Cn1c(C=Cc2ccc(Cl)cc2)nc2ccccc21			MIC		283 µM
CSC1=C(Nc2ccc(Br)cc2C)C(=O)c2cccnc2C1=O	ATCC 10231		MIC		1.6 µg/mL
C=CC(C)(C)c1c2c(c(O)c3ccc(=O)oc13)C=CC(C)(C)O2			MIC50		>50 µg/mL
OC(Cn1cncn1)(Cn1cncn1)c1ccc(F)cc1F	ATCC 10231		MIC		25 µg/mL
CCN1C(=O)C=CC1=O	ATCC 10231	broth dilution	MIC80		2 µg/mL
NCCCCC(N)C(=O)NCCCCC(N)C(=O)O			MIC		54 µg/mL
C=CCc1ccc(OC)c(OC)c1	2642	turbidity	MIC90		340 µg/mL
COc1ccc2c(Cc3ccc(C(C)(C)C)cc3)c3[n+](cc2c1OC)CCc1cc2c(cc1-3)OCO2	ATCC38248		MIC		1.56 µg/mL
COc1cc(/C=C2\SC(=S)NC2=O)cc(OC)c1OCC(O)(Cn1cncn1)c1ccc(F)cc1F	ATCC 24433	broth dilution	MIC50		16 µg/mL
NC=Nc1ccc(SCc2cc(Br)cc(Br)c2)cc1	SC5314		MFC		>100 µM
O=C(O/N=C(\CCn1ccnc1)c1ccccc1)c1ccccc1		agar diffusion	MIC80		0.3919 µg/mL
Nc1[nH]c(=O)ncc1F	10 isolates	broth dilution	EC90	pH 5	2 µg/mL
C[C@@H](n1ccnn1)[C@@](O)(Cn1cncn1)c1ccc(F)cc1	TA		MIC		100 µg/mL
COc1c2c(cc3oc(=O)ccc13)OC(C)(C)C=C2			MIC50		>50 µg/mL
CCS(=O)c1nnc(Cc2cc([N+](=O)[O-])ccc2-c2ncc[nH]2)s1	ATCC 10231		MIC		25 µg/mL
O=c1cc(-c2ccc(O)c(O)c2)oc2cc(O)c([C@@H]3O[C@H](CO)[C@@H](O)[C@H](O)[C@H]3O)c(O)c12	ATCC 18804	broth dilution	MIC		>500 µg/mL
O=C(/C=C/c1cc(O)ccc1O)c1ccccc1	SDAU5		MIC		100 µg/mL
O=Cc1cc2c(cc1O)[nH]c1ccccc12			MIC50		29.3 µg/mL
C=C1C[C@H](N)[C@H](C(=O)O)C1	69 clinical isolates		MIC50		16 µg/mL
CSC1=C(Nc2cccc(C#N)c2)C(=O)c2cccnc2C1=O	ATCC 10231		MIC		50 µg/mL
C[C@H](n1cnnn1)[C@](O)(Cn1cncn1)c1ccc(F)cc1F	TA		MIC		100 µg/mL
CS(=O)c1nnc(-c2cc([N+](=O)[O-])ccc2-c2ccco2)s1	ATCC 10231		MIC		12.5 µg/mL
Clc1ccc(C(c2ccccc2)N2CCN(CCn3ccnc3)CC2)cc1		agar	MIC90		>256 µg/mL
C[C@@H]1CC[C@H]2O[C@@]2(C)[C@@]1(C)CCc1ccc2c(c1)C(=O)C=CC2=O			MIC		6 µg/mL
NC(=O)/C=C/c1ccccc1			MIC		0.002 µg/mL
CCN(CC)Cn1c(C=Cc2ccc(OC)cc2)nc2ccccc21			MIC		35.7 µM
Cc1cccc(C)c1N1C(=O)C=CC1=O	ATCC 10231	broth dilution	MIC80		2 µg/mL
C[C@@H](n1cnnn1)[C@@](O)(Cn1cncn1)c1ccc(F)cc1F	TA		MIC		>100 µg/mL
NNC(=O)/C=C/c1ccccc1			MIC		0.003 µg/mL
CSc1nnc(-c2cc([N+](=O)[O-])ccc2-c2ccco2)s1	ATCC 10231		MIC		>100 µg/mL
CSC1=C(Nc2cc(C(F)(F)F)cc(C(F)(F)F)c2Br)C(=O)c2cccnc2C1=O	ATCC 10231		MIC		50 µg/mL
OC(Cn1cncn1)(c1ccc(C(F)(F)F)cc1)C(F)(F)c1cccs1	ATCC 90028		MIC		≤0.125 µg/mL
COc1ccc(-c2csc(N3N=C(c4cccs4)CC3c3ccc(Cl)cc3)n2)cc1	Clinical isolates		MIC		125 µg/mL
C[C@@H]1CC(=O)[C@H](C)[C@H](C)C1CCc1ccc2c(c1)C(=O)C=CC2=O			MIC		3 µg/mL

A second listing of 10 rows from above:

SMILES	strain	read by	endpoint	conditions	value
Nc1[nH]c(=O)ncc1F	10 isolates	broth dilution	EC90	pH 5	2 µg/mL
C[C@@H](n1ccnn1)[C@@](O)(Cn1cncn1)c1ccccc1F	IFO 0583		MIC		50 µg/mL
Nc1ncccc1-c1cc(Cc2ccc(COc3ccccn3)cc2)no1	IFM49971	broth dilution	MIC50		0.008 µg/mL
COc1cc(/C=C2\SC(=S)NC2=O)cc(OC)c1OCC(O)(Cn1cncn1)c1ccc(F)cc1F	ATCC 24433	broth dilution	MIC50		16 µg/mL
CCN(CC)Cn1c(C=Cc2ccc(OC)cc2)nc2ccccc21			MIC		35.7 µM
C[C@@H](n1ccnn1)[C@@](O)(Cn1cncn1)c1ccc(F)cc1	TA		MIC		100 µg/mL
COc1ccc2c(Cc3ccc(C(C)(C)C)cc3)c3[n+](cc2c1OC)CCc1cc2c(cc1-3)OCO2	ATCC38248		MIC		1.56 µg/mL
COc1c2c(cc3oc(=O)ccc13)OC(C)(C)C=C2			MIC50		>50 µg/mL
Oc1ccc(C(=S)N2C=NC(Cl)C2Cl)c(O)c1	ATCC 10231		MIC		50 µg/mL
Clc1ccc(-c2csc(N3N=C(c4cccs4)CC3c3ccccc3)n2)cc1	Clinical isolates		MIC		125 µg/mL

Blank or dashed fields: not listed here. A number after MIC or MFC names an inhibition level or a share of isolates. ECn is the concentration giving n% inhibition of infection, replication or growth.